Results on one substance are retold here after article PMC11883728.

The experiment deals with transmembrane protease, serine 2 (TMPRSS2) (UniProt O15393).

“SARS-CoV-2 spike protein on reporter virus particles (RVPs) (from UniProt P0DTC2) (natural protein)” had a ΔT2 of LIONs-TMPRSS2 with RVPs at pH 5.0 of 190 ms.
